{
  "sequences": {"note": "The chains behind the UniProt entries cited, without tags or fusion partners.", "UniProt O15393, whole entry": "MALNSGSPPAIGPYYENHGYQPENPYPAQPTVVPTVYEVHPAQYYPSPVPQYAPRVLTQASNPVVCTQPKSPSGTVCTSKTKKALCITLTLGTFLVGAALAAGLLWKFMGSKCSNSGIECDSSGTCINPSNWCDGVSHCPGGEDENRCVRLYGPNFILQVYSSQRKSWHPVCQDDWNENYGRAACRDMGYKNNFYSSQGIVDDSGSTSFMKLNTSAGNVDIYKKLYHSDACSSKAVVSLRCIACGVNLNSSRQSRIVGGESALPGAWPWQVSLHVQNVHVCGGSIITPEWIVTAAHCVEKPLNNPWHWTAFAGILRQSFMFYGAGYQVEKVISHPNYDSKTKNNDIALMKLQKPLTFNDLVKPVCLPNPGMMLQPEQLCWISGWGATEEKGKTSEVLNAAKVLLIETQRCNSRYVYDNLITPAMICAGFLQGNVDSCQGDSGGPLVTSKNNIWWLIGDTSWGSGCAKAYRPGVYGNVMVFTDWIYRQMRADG", "UniProt Q9Y5Y6, whole entry": "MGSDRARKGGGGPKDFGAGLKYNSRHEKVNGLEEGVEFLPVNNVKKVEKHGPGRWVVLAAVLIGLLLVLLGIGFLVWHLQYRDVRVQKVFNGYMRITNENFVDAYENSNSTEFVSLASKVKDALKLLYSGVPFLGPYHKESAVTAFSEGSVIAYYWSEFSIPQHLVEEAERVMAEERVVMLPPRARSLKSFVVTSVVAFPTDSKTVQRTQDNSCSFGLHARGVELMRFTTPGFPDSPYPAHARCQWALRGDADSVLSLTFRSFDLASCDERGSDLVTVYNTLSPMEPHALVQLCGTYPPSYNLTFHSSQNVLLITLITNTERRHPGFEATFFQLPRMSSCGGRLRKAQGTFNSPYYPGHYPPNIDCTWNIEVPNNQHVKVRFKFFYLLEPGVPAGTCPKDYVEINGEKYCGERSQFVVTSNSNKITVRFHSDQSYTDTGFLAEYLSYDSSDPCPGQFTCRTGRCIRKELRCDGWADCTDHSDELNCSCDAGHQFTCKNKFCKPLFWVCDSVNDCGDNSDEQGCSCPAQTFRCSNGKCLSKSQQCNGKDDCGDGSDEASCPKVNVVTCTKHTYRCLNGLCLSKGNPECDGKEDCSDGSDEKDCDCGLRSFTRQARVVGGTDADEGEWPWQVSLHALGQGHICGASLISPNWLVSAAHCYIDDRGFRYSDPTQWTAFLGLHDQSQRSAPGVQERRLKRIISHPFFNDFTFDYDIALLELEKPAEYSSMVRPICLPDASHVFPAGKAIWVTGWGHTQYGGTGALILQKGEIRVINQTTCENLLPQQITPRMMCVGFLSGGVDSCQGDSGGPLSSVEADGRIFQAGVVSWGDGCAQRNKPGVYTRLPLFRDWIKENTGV"},
  "source": "paper PMC9270327",
  "about": "(Communications Biology, 2022)",
  "key": {"[1]": {"tested_on": "SARS-CoV-2 Alpha (B.1.1.7), Caco-2 cells", "assay": "SARS-CoV-2 inhibition assay, VOC Alpha (in-cell ELISA)", "conditions": "for SARS-CoV-2 infection, Mean (0 nM = 100): Fig. 6c, VOC Alpha"}, "[2]": {"tested_on": "lentiviral pseudoparticles carrying SARS-CoV-2 Omicron BA.1 (B.1.1.529) spike, Caco-2 cells", "assay": "Pseudovirus inhibition assay, Omicron BA.1 spike", "conditions": "for SARS-CoV-2 spike driven entry, Mean (0 nM = 100): Fig. 5e, Omicron BA.1 spike pseudoparticles"}, "[3]": {"tested_on": "lentiviral pseudoparticles carrying SARS-CoV-2 Wuhan-Hu-1 spike, Caco-2 cells", "assay": "Pseudovirus inhibition assay, wild-type (Wuhan-Hu-1) spike", "conditions": "for SARS-CoV-2 spike driven entry, Mean (0 nM = 100): Fig. 5a, Wuhan-Hu-1 spike pseudoparticles"}, "[4]": {"biological_target": "TMPRSS2 expressed in HEK293T cells (Homo sapiens, UniProt O15393)", "assay": "Inhibition of cellular TMPRSS2 activity on HEK293T cells transiently expressing TMPRSS2", "format": "cell-based", "conditions": "2 h; for normalized fluorescence intensity, HEK293T TMPRSS2, Mean (Fig. 4b): corrected for mock-transfected cells"}, "[5]": {"biological_target": "recombinant human matriptase (Homo sapiens, UniProt Q9Y5Y6)", "assay": "Enzyme inhibition assay with purified matriptase (Ki, dose-response)", "format": "biochemical"}, "[6]": {"tested_on": "SARS-CoV-2 Wuhan-Hu-1, Caco-2 cells", "assay": "SARS-CoV-2 inhibition assay, Wuhan-Hu-1 (in-cell ELISA)", "conditions": "for SARS-CoV-2 infection, Mean (0 nM = 100): Fig. 6a, Wuhan-Hu-1; for IC50: read-out: IC50 SARS-CoV-2 Wuhan-Hu-1, Caco-2 cells"}, "[7]": {"tested_on": "SARS-CoV-2 Beta (B.1.351), Caco-2 cells", "assay": "SARS-CoV-2 inhibition assay, VOC Beta (in-cell ELISA)", "conditions": "for SARS-CoV-2 infection, Mean (0 nM = 100): Fig. 6d, VOC Beta"}, "[8]": {"biological_target": "cellular TMPRSS2 activity, Caco-2 cells (Homo sapiens, UniProt O15393)", "conditions": "for cellular protease activity on Caco-2 cells, Mean (Fig. 4a): normalized, 0 nM = 100"}},
  "note": "Like-named read-outs stand apart in the source and are kept apart here.",
  "data": [
    {"compound": "CC(=O)N[C@@H](Cc1c[nH]cn1)C(=O)N1CCC[C@H]1C(=O)NC(CCCNC(=N)N)C(=O)c1nc2ccccc2s1", "note": "(some centres unmarked)", "values": [
      {"measurement": "SARS-CoV-2 infection, Mean (0 nM = 100)", "setting": "[1]; compound 20000 nM", "value": 2.3474},
      {"measurement": "SARS-CoV-2 infection, Mean (0 nM = 100)", "setting": "[1]; compound 100000 nM", "value": -2.466},
      {"measurement": "IC50", "setting": "[1]; read-out: IC50 SARS-CoV-2 Alpha, Caco-2 cells, in-cell ELISA 2 days post infection", "value": 20000, "unit": "nM"},
      {"measurement": "SARS-CoV-2 spike driven entry, Mean (0 nM = 100)", "setting": "[2]; compound 3.2 nM", "value": 97.4758},
      {"measurement": "SARS-CoV-2 spike driven entry, Mean (0 nM = 100)", "setting": "[2]; compound 16 nM", "value": 88.0896},
      {"measurement": "SARS-CoV-2 spike driven entry, Mean (0 nM = 100)", "setting": "[2]; compound 80 nM", "value": 76.0004},
      {"measurement": "SARS-CoV-2 spike driven entry, Mean (0 nM = 100)", "setting": "[2]; compound 400 nM", "value": 46.5624},
      {"measurement": "SARS-CoV-2 spike driven entry, Mean (0 nM = 100)", "setting": "[2]; compound 2000 nM", "value": 21.5607},
      {"measurement": "SARS-CoV-2 spike driven entry, Mean (0 nM = 100)", "setting": "[2]; compound 10000 nM", "value": 5.826},
      {"measurement": "SARS-CoV-2 spike driven entry, Mean (0 nM = 100)", "setting": "[2]; compound 50000 nM", "value": 3.492},
      {"measurement": "IC50", "setting": "[2]; read-out: IC50 pseudotyped lentivirus Omicron BA.1, Caco-2 cells, luciferase 2 days post transduction", "value": 339, "unit": "nM"},
      {"measurement": "SARS-CoV-2 spike driven entry, Mean (0 nM = 100)", "setting": "[3]; compound 32 nM", "value": 102.325},
      {"measurement": "SARS-CoV-2 spike driven entry, Mean (0 nM = 100)", "setting": "[3]; compound 160 nM", "value": 88.717},
      {"measurement": "SARS-CoV-2 spike driven entry, Mean (0 nM = 100)", "setting": "[3]; compound 800 nM", "value": 68.7115},
      {"measurement": "SARS-CoV-2 spike driven entry, Mean (0 nM = 100)", "setting": "[3]; compound 4000 nM", "value": 16.6},
      {"measurement": "SARS-CoV-2 spike driven entry, Mean (0 nM = 100)", "setting": "[3]; compound 20000 nM", "value": 2.541},
      {"measurement": "SARS-CoV-2 spike driven entry, Mean (0 nM = 100)", "setting": "[3]; compound 100000 nM", "value": 3.21},
      {"measurement": "IC50", "setting": "[3]; read-out: IC50 pseudotyped lentivirus Wuhan-Hu-1, Caco-2 cells, luciferase 2 days post transduction", "value": 1320, "unit": "nM"},
      {"measurement": "normalized fluorescence intensity, HEK293T TMPRSS2, Mean (Fig. 4b)", "setting": "[4]; 0.5 nM", "value": 62.045},
      {"measurement": "normalized fluorescence intensity, HEK293T TMPRSS2, Mean (Fig. 4b)", "setting": "[4]; 5 nM", "value": 61.69},
      {"measurement": "normalized fluorescence intensity, HEK293T TMPRSS2, Mean (Fig. 4b)", "setting": "[4]; 50 nM", "value": 47.875},
      {"measurement": "normalized fluorescence intensity, HEK293T TMPRSS2, Mean (Fig. 4b)", "setting": "[4]; 500 nM", "value": 22.78},
      {"measurement": "normalized fluorescence intensity, HEK293T TMPRSS2, Mean (Fig. 4b)", "setting": "[4]; 5000 nM", "value": 3.58},
      {"measurement": "normalized fluorescence intensity, HEK293T TMPRSS2, Mean (Fig. 4b)", "setting": "[4]; 50000 nM", "value": -2.08},
      {"measurement": "IC50", "setting": "[4]; read-out: IC50 HEK293T TMPRSS2, corrected for mock-transfected HEK293T cells", "value": 13.3, "unit": "nM"},
      {"measurement": "Selectivity index Matriptase", "setting": "[5]; quotient Ki matriptase / Ki TMPRSS2", "value": 1.4},
      {"measurement": "Ki", "setting": "[5]; read-out: Ki Matriptase, 30 min preincubation, substrate Boc-Gln-Ala-Arg-AMC", "value": 11.5, "unit": "nM"},
      {"measurement": "SARS-CoV-2 infection, Mean (0 nM = 100)", "setting": "[6]; compound 32 nM", "value": 100.452},
      {"measurement": "SARS-CoV-2 infection, Mean (0 nM = 100)", "setting": "[6]; compound 160 nM", "value": 100.529},
      {"measurement": "SARS-CoV-2 infection, Mean (0 nM = 100)", "setting": "[6]; compound 800 nM", "value": 106.01},
      {"measurement": "SARS-CoV-2 infection, Mean (0 nM = 100)", "setting": "[6]; compound 4000 nM", "value": 60.732},
      {"measurement": "SARS-CoV-2 infection, Mean (0 nM = 100)", "setting": "[6]; compound 20000 nM", "value": 15.3086},
      {"measurement": "SARS-CoV-2 infection, Mean (0 nM = 100)", "setting": "[6]; compound 100000 nM", "value": -2.169},
      {"measurement": "IC50", "setting": "[6]; 2 days post infection", "value": 5700, "unit": "nM"},
      {"measurement": "IC50", "setting": "[6]; in-cell ELISA 2 days post infection", "value": 5670, "unit": "nM"},
      {"measurement": "SARS-CoV-2 infection, Mean (0 nM = 100)", "setting": "[7]; compound 32 nM", "value": 92.6748},
      {"measurement": "SARS-CoV-2 infection, Mean (0 nM = 100)", "setting": "[7]; compound 160 nM", "value": 84.2498},
      {"measurement": "SARS-CoV-2 infection, Mean (0 nM = 100)", "setting": "[7]; compound 800 nM", "value": 79.3268},
      {"measurement": "SARS-CoV-2 infection, Mean (0 nM = 100)", "setting": "[7]; compound 4000 nM", "value": 82.5645},
      {"measurement": "SARS-CoV-2 infection, Mean (0 nM = 100)", "setting": "[7]; compound 20000 nM", "value": 4.476},
      {"measurement": "SARS-CoV-2 infection, Mean (0 nM = 100)", "setting": "[7]; compound 100000 nM", "value": -2.262},
      {"measurement": "IC50", "setting": "[7]; read-out: IC50 SARS-CoV-2 Beta, Caco-2 cells, in-cell ELISA 2 days post infection", "value": 6980, "unit": "nM"},
      {"measurement": "cellular protease activity on Caco-2 cells, Mean (Fig. 4a)", "setting": "[8]; 0.1 nM", "value": 84.1146},
      {"measurement": "cellular protease activity on Caco-2 cells, Mean (Fig. 4a)", "setting": "[8]; 1 nM", "value": 93.75},
      {"measurement": "cellular protease activity on Caco-2 cells, Mean (Fig. 4a)", "setting": "[8]; 10 nM", "value": 77.3438},
      {"measurement": "cellular protease activity on Caco-2 cells, Mean (Fig. 4a)", "setting": "[8]; 100 nM", "value": 32.8125},
      {"measurement": "cellular protease activity on Caco-2 cells, Mean (Fig. 4a)", "setting": "[8]; 1000 nM", "value": 15.625},
      {"measurement": "cellular protease activity on Caco-2 cells, Mean (Fig. 4a)", "setting": "[8]; 10000 nM", "value": 2.344},
      {"measurement": "cellular protease activity on Caco-2 cells, Mean (Fig. 4a)", "setting": "[8]; 100000 nM", "value": 2.865},
      {"measurement": "IC50", "setting": "[8]; read-out: IC50 Caco2, cell-mediated proteolysis of Boc-Gln-Ala-Arg-AMC, 30 min preincubation", "value": 45.5, "unit": "nM"}
    ]}
  ]
}
